Test system: SK-MEL-1 human melanoma cells
Experiment: SK-MEL-1 melanoma tumor volume in nude mice
Assay type: in vivo
Conditions: SK-MEL-1 tumor volume; PD325901 15 mg/kg QD 14 days, pegylated Interferon-beta-1a 10 μg QW 3 weeks
Procedure: Athymic nude mice were inoculated with 2×10^6 SK-MEL-1 human melanoma cells (1 injection per flank; 2 injections per mouse) and 100-200 cubic mm tumors were established. Mice (5 per group) were randomized and treated with 0, 1, 5, 10 and 20 mg/kg PD 325901 in PEG400 PO (orally) once per day (QD) for 14 days. Tumors were measured every 3 days using calipers and volume was calculated for a prolate spheroid, defined as: […]
where L equals the major diameter and W equals the minor diameter.
Athymic nude mice were inoculated with 2×10^6 SK-MEL-1 human melanoma cells (1 injection in flank; 1 injection per mouse) and 100-200 cubic mm tumors were established. pegylated IFN β-1a was provided in 20 mM acetic acid/sodium acetate at a pH of 4.8 and 150 mM arginine/HCl containing 15 mg/mL human serum albumin (HSA). HSA was used as a control and administered at a concentration of 15 mg/mL. Mice (10 per group) were randomized and treated with either:
i. PEG400 (once a day (QD) for 14 days) and pegylated Interferon-beta-1a (10 μg once a week (QW) for 3 weeks); ii. PD325901 (15 mg/kg once a day (QD) for 14 days) and pegylated Interferon-beta-1a (10 μg once a week (QW) for 3 weeks); iii. PEG400 (once a day (QD) for 14 days) and (HSA) (QW for 3 weeks); iv. […]
Tumors were measured every 3 days using calipers and volume was calculated for a prolate spheroid. […]

In the case of “pegylated IFN-beta-1a: Interferon beta-1a modified at the N-terminal α-amino group with a single, linear 20 kDa mPEG-O-2-methylpropionaldehyde group”, the “difference between estimates of least square means between treatment groups and vehicle control group” value is reported as −4.77.

Reference: patent publication US20120082647A1, “INTERFERON-BETA FOR USE AS MONOTHERAPY OR IN COMBINATION WITH OTHER CANCER THERAPIES” (priority 2010, published 2012)
